In ChEMBL document CHEMBL5316284, “Structural Determinants of Indole-2-carboxamides: Identification of Lead Acetamides with Pan Antimycobacterial Activity” (J Med Chem, 2023):

System: Mycobacterium tuberculosis
Assay: Binding affinity to Mycobacterium tuberculosis MmpL3 assessed as association constant by SPR analysis

Compound | Ka [M⁻¹ s⁻¹]
C[C@@H]1[C@H]2C[C@@H](C[C@H]1NC(=O)CNc1cccc(Cl)c1)C2(C)C | 1520
O=C(CNc1cccc(OC(F)(F)F)c1)NC12CC3CC(CC(C3)C1)C2 | 1580
